Results on 2 molecules are retold here after ChEMBL document CHEMBL1157932, “Prenylated pterocarpans as bacterial neuraminidase inhibitors” (Bioorg Med Chem, 2010).

Assay [1] addresses T1, Sialidase (Clostridium perfringens) (UniProt P10481).
T1 sequence (whole entry): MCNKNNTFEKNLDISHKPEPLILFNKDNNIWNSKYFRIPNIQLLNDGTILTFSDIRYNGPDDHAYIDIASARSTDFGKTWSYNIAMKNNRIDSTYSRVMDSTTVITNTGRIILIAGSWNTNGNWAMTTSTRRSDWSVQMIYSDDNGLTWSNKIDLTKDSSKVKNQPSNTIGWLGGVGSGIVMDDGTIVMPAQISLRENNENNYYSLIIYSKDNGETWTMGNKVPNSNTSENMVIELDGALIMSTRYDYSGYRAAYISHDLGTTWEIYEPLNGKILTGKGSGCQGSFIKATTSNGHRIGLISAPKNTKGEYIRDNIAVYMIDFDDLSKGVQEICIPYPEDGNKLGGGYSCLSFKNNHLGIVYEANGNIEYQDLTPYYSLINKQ
Briefly: Noncompetitive inhibition of Clostridium perfringens neuraminidase by Lineweaver-Burke plot analysis.

Assay [2] concerns the target T1, Sialidase (Clostridium perfringens). Put plainly: Noncompetitive inhibition of Clostridium perfringens neuraminidase by Dixon plot analysis. The gist of the method:
(§1)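 Dixon plots of 1/v against [I] at each substrate concentration, rates from unquenched fluorometric 4-MU-NANA hydrolysis (ex 360/em 440 nm); Ki read from the x-axis value where lines intersect.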

For assay [3] the target is unchanged. Put plainly: Reversible inhibition of Clostridium perfringens neuraminidase at 10 times IC50 pre-incubated for 15 mins by spectrofluorimetry. Summed up: (§2)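 Reversibility by jump dilution: enzyme pre-incubated 15 min with compound at 100-fold assay enzyme level (0.125 U/mL), then diluted 1/100 into acetate buffer with substrate. Progress curves of fluorescence over 30 min compared with enzyme pre-incubated and diluted without compound.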

Assay [4] has the same target. Put plainly: Inhibition of Clostridium perfringens neuraminidase assessed as inhibition of 4-MU-NANA hydrolysis after 10 mins by spectrofluorimetry. The gist of the method: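 Enzyme at 0.05 U/mL in 0.04 M sodium acetate pH 5.0 with compound (DMSO stock diluted in buffer) and 4-MU-NANA (1 mM stock); 10 min at 37 °C. Stopped with 0.1 M glycine–NaOH pH 10.4; 4-methylumbelliferone read at ex 360/em 440 nm. IC50 from regression, mean ± SD of three replicates.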

Assay [5] has the same target. Put plainly: Reversible inhibition of Clostridium perfringens neuraminidase at 0.1 times IC50 pre-incubated for 15 mins by spectrofluorimetry. Summed up:
as §2

The target is the same in assay [6]. Briefly: Inhibition of Clostridium perfringens neuraminidase at 10 times IC50 by spectrofluorimetry. The gist of the method:
as §2

Assay [7] has the same target. Put plainly: Inhibition of Clostridium perfringens neuraminidase at 0.1 times IC50 by spectrofluorimetry. The gist of the method:
as §2

The target is the same in assay [8]. Briefly: Competitive inhibition of Clostridium perfringens neuraminidase by Lineweaver-Burke plot analysis.
For assay [9] the target is unchanged. Put plainly: Competitive inhibition of Clostridium perfringens neuraminidase by Dixon plot analysis. The gist of the method:
as §1

Active and inactive are the calls of the source. No cut-off for these calls is given here.

Broadly, the inhibition is the relative decrease from the control value, in per cent. In the case of `COc1ccc2c3c(oc2c1CC=C(C)C)-c1ccc(O)cc1OC3` [ERYVARIN D], the inhibition result in assay [1], in assay [2], in [3] and in assay [5] was “Active” throughout. The Activity entry in [4] was “Dose-dependent effect”. Moreover, the inhibition stood at 91% in assay [6] and 9% in assay [7].
Take `CC1(C)C=Cc2c(ccc3c2O[C@H]2c4ccc(O)cc4OC[C@@H]32)O1` [PHASEOLIN]: the inhibition entry in [3], in assay [5], in assay [8] and in [9] was “Active” each time. In [4], the Activity result is “Dose-dependent effect”. Also, the results for the inhibition in [6] and in assay [7] were 91% and 9%, respectively.
